Test results as given in patent US11479582B2 (KING FAISAL UNIVERSITY, dated 2022).

Target: SARS-CoV-2 spike (S) protein on replication-competent SARS-CoV-2 (SARS-CoV-2, UniProt P0DTC2)
Assay: cell-based or functional assay

With HRLRQIRGIRARVVQIQKEIWRLNEVAKLLNESLIYLQE [peptide #125 (mutated HR2 39-mer, 'High Affinity')] the “SARS-CoV-2 plaque inhibition in Vero E6 cells, peptide at 10 µM” value was 75%.
